Data as given in PubChem BioAssay AID624099 (ICCB-Longwood, 2012).
Shown is a random part of about 21,000 reagents. Over the whole deposit, 497 (2.4%) got an active call. 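Higher z means weaker E2 silencing; only reporter increases were scored, and knock-downs that hurt cell survival may mask genuine repressor factors.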 Reagents against one gene are numbered here.

Assay: 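Host factors E2 relies on to silence an HPV18 LCR reporter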 (primary screen)
Cell system: human C33A cervical carcinoma cells (HPV-negative) stably expressing BPV1 E2 and an HPV18 LCR luciferase reporter
Knock-down reagent: siRNA pool against human genes, 40 nM
Time to read-out: 72 h
Measurement: 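HPV18 LCR reporter light per well, converted to plate-wise z-scores that exclude control wells, and averaged over triplicate plates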
Direction: mean z-score and z-score: higher = stronger reporter signal, weaker E2 silencing
Active means: 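Mean z ≥ 2 together with z ≥ 2 in two or more of the three replicates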

| gene | reagent | mean z-score | z-score, replicate A | z-score, replicate B | z-score, replicate C | activity call |
| --- | --- | --- | --- | --- | --- | --- |
| DDI2 (DDI proteasomal shuttling factor 2) | 1 | 1.19 | 1.29 | 1.11 | 1.17 | inactive |
| KRTAP21-2 (keratin associated protein 21-2) | 1 | 0.42 | 0.06 | 0.27 | 0.93 | inactive |
| OTUD4 (OTU deubiquitinase 4) | 1 | 2.1 | 2.26 | 2.38 | 1.66 | active |
| LOC388959 (retired record) | 1 | 0.09 | -0.08 | 0.06 | 0.28 | inactive |
| SLC1A6 | 1 | 0.07 | 0.08 | 0.22 | -0.1 | inactive |
| VCF1 (VCP nuclear cofactor family member 1) | 1 | -1.24 | -1.45 | -1.3 | -0.96 | inactive |
| PPP2CA (protein phosphatase 2 catalytic subunit alpha) | 1 | -0.04 | -0.24 | 0.53 | -0.4 | inactive |
| PLAA (phospholipase A2 activating protein) | 1 | -0.47 | -0.64 | -0.58 | -0.19 | inactive |
| ST6GALNAC3 (ST6 N-acetylgalactosaminide alpha-2,6-sialyltransferase 3) | 1 | -0.03 | 0.28 | -0.37 | 0 | inactive |
| SCAF4 (SR-related CTD associated factor 4) | 1 | 0.5 | 0.34 | 0.56 | 0.6 | inactive |
| ITIH4 (inter-alpha-trypsin inhibitor heavy chain 4) | 1 | -1.79 | -1.85 | -1.94 | -1.58 | inactive |
| FEM1A (fem-1 homolog A) | 1 | -1.03 | -1.3 | -0.66 | -1.12 | inactive |
| ELOVL4 (ELOVL fatty acid elongase 4) | 1 | -0.69 | -0.93 | -0.66 | -0.49 | inactive |
| ALOX5 (arachidonate 5-lipoxygenase) | 1 | -0.88 | -0.9 | -0.82 | -0.92 | inactive |
| ADGRG2 (adhesion G protein-coupled receptor G2) | 1 | -0.11 | -0.36 | 0.02 | 0.01 | inactive |
| GIN1 (gypsy retrotransposon integrase 1) | 1 | -1.64 | -1.75 | -1.64 | -1.53 | inactive |
| E2F1 (E2F transcription factor 1) | 1 | -1.15 | -1.44 | -1 | -1 | inactive |
| ATAD5 (ATPase family AAA domain containing 5) | 1 | 0.27 | 0.87 | -0.07 | 0.01 | inactive |
| CD200R1 (CD200 receptor 1) | 1 | 0.54 | 0.52 | 0.19 | 0.91 | inactive |
| LAPTM4A (lysosomal protein transmembrane 4 alpha) | 1 | -1.22 | -1.19 | -1.5 | -0.97 | inactive |
| MAST4 | 1 | 1.57 | 1.37 | 1.74 | 1.59 | inactive |
| MAST4 | 2 | -2.3 | -2.02 | -2.3 | -2.6 | inactive |
| TPGS2 (tubulin polyglutamylase complex subunit 2) | 1 | 0.52 | 0.57 | 0.57 | 0.41 | inactive |
| SLC22A9 | 1 | 1.1 | 1.01 | 0.98 | 1.31 | inactive |
| OTOL1 (otolin 1) | 1 | 0.39 | 0.11 | 0.44 | 0.61 | inactive |
| ATXN1 (ataxin 1) | 1 | -0.81 | -0.49 | -0.63 | -1.31 | inactive |
| LOC401606 (retired record) | 1 | -0.33 | -0.07 | -0.42 | -0.52 | inactive |
| CD163L1 (CD163 molecule like 1) | 1 | 1.09 | 1.09 | 1.12 | 1.05 | inactive |
| SCG3 (secretogranin III) | 1 | 1.02 | 1.18 | 1.39 | 0.5 | inactive |
| LOC390801 (retired record) | 1 | 0.69 | 0.44 | 0.89 | 0.75 | inactive |

7 entries from above, sorted by “mean z-score”, lowest first:
| gene | reagent | mean z-score | z-score, replicate A | z-score, replicate B | z-score, replicate C | activity call |
| --- | --- | --- | --- | --- | --- | --- |
| MAST4 | 2 | -2.3 | -2.02 | -2.3 | -2.6 | inactive |
| ATXN1 (ataxin 1) | 1 | -0.81 | -0.49 | -0.63 | -1.31 | inactive |
| LOC401606 (retired record) | 1 | -0.33 | -0.07 | -0.42 | -0.52 | inactive |
| OTOL1 (otolin 1) | 1 | 0.39 | 0.11 | 0.44 | 0.61 | inactive |
| TPGS2 (tubulin polyglutamylase complex subunit 2) | 1 | 0.52 | 0.57 | 0.57 | 0.41 | inactive |
| CD163L1 (CD163 molecule like 1) | 1 | 1.09 | 1.09 | 1.12 | 1.05 | inactive |
| SLC22A9 | 1 | 1.1 | 1.01 | 0.98 | 1.31 | inactive |

Next entries:
| gene | reagent | mean z-score | z-score, replicate A | z-score, replicate B | z-score, replicate C | activity call |
| --- | --- | --- | --- | --- | --- | --- |
| LGALS7 (galectin 7) | 1 | 0.71 | 0.84 | 0.66 | 0.62 | inactive |
| LURAP1L (leucine rich adaptor protein 1 like) | 1 | -0.87 | -0.94 | -0.95 | -0.73 | inactive |
| SLC44A3 | 1 | 1.15 | 1.08 | 1.31 | 1.08 | inactive |
| CCL3 (C-C motif chemokine ligand 3) | 1 | -0.52 | -0.24 | -0.42 | -0.91 | inactive |
| SLC52A3 | 1 | 2.15 | 1.86 | 2.21 | 2.36 | active |
| ELOVL3 (ELOVL fatty acid elongase 3) | 1 | 0.29 | -0.13 | 0.53 | 0.45 | inactive |
| PDSS2 (decaprenyl diphosphate synthase subunit 2) | 1 | -0.04 | -0.31 | 0.23 | -0.03 | inactive |
| MUC2 (mucin 2, oligomeric mucus/gel-forming) | 1 | 1.04 | 1.17 | 0.98 | 0.97 | inactive |
| LOC399789 (retired record) | 1 | -0.16 | 0.38 | -0.54 | -0.32 | inactive |
| TNFSF12 (TNF superfamily member 12) | 1 | -0.13 | -0.12 | -0.23 | -0.03 | inactive |
| VWA2 (von Willebrand factor A domain containing 2) | 1 | -0.37 | -0.36 | -0.34 | -0.41 | inactive |
| VANGL1 (VANGL planar cell polarity protein 1) | 1 | 2.06 | 2.29 | 1.98 | 1.92 | inactive |
| LOC157273 | 1 | -0.28 | -0.51 | -0.15 | -0.17 | inactive |
| INTS11 (integrator complex subunit 11) | 1 | 0.62 | 0.65 | 0.55 | 0.64 | inactive |
| LOC338750 (retired record) | 1 | -0.28 | 0.1 | -0.42 | -0.52 | inactive |
| RBMXL2 (RBMX like 2) | 1 | -0.42 | -0.66 | -0.46 | -0.15 | inactive |
| NUTM2E (NUT family member 2E) | 1 | 0.53 | 1.89 | -0.45 | 0.15 | inactive |
| TUBB6 (tubulin beta 6 class V) | 1 | -0.33 | -0.25 | -0.45 | -0.28 | inactive |
| GRM2 (glutamate metabotropic receptor 2) | 1 | -1.95 | -1.99 | -1.9 | -1.96 | inactive |
| AGPAT1 (1-acylglycerol-3-phosphate O-acyltransferase 1) | 1 | 0.26 | 0.08 | 0.49 | 0.22 | inactive |
| FOLR3 (folate receptor gamma) | 1 | -0.28 | -0.37 | -0.17 | -0.32 | inactive |
| RAD51B (RAD51 paralog B) | 1 | 1.91 | 1.85 | 2.24 | 1.66 | inactive |
| CFAP69 (cilia and flagella associated protein 69) | 1 | -0.13 | 0.64 | 0.07 | -1.09 | inactive |
| RGMA (repulsive guidance molecule BMP co-receptor a) | 1 | -0.79 | -0.59 | -1.02 | -0.74 | inactive |
| TUSC2 (tumor suppressor 2, mitochondrial calcium regulator) | 1 | 0.36 | -0.11 | 0.84 | 0.36 | inactive |
| HLA-DQB2 (major histocompatibility complex, class II, DQ beta 2) | 1 | -0.26 | -0.25 | -0.37 | -0.15 | inactive |
| RXRG (retinoid X receptor gamma) | 1 | 1.35 | 1.59 | 1.02 | 1.43 | inactive |
